Test results as given in publication PMC8154581, “Discovery of Novel Thiophene-arylamide Derivatives as DprE1 Inhibitors with Potent Antimycobacterial Activities” (Journal of Medicinal Chemistry, 2021).
≈ marks a conversion by molar mass, not a printed value.

Assays:
[1] = system: PBTZ169-resistant strain of M. tuberculosis; experiment: MIC against PBTZ169-resistant strain; type: cell-based
[2] = system: drug-resistant tuberculosis strains; experiment: MIC against drug-resistant tuberculosis strains (pooled in abstract); details: range over the named compounds and strains
[3] = system: M. bovis BCG Pasteur strain transformed with pMV261; experiment: MIC against M. bovis BCG Pasteur transformed with empty pMV261 (wild type)
Vero cells = experiment: Cytotoxicity assay in Vero cells (MTT); type: cell-based; details: selectivity index, IC50/MIC
[4] = system: M. bovis BCG Pasteur transformed with pMV261:Mt-dprE1; experiment: MIC against M. bovis BCG Pasteur overexpressing Mt-DprE1; type: cell-based, Mycobacterium bovis; details: ratio of MIC against DprE1-overexpressing strain and wild-type strain
[5] = system: bedaquiline-resistant strain of M. tuberculosis; experiment: MIC against bedaquiline-resistant strain; type: cell-based

## CCOC(=O)NC(=O)c1ccsc1NC(=O)c1ccc(C(=O)N2CCCCC2)cc1 [Compound 23j, Ethyl (2-(4-(Piperidine-1-carbonyl)benzamido)thiophene-3-carbonyl)carbamate]
[1]
  MIC PBTZ169-resistant strain: 0.14 µg/mL (≈ 0.326 µM)
[2]
  MIC drug-resistant tuberculosis strains: 0.031 to 0.24 µg/mL
[3]
  MICWT: 0.32 µg/mL

## CCOC(=O)NC(=O)c1ccsc1NC(=O)c1ccc(C(=O)N2CCCCC2)c(F)c1 [Compound 24f, Ethyl (2-(3-Fluoro-4-(piperidine-1-carbonyl)benzamido)thiophene-3-carbonyl)carbamate]
[1]
  MIC PBTZ169-resistant strain: 0.062 µg/mL (≈ 0.139 µM)
[2]
  MIC drug-resistant tuberculosis strains: 0.031 to 0.24 µg/mL
Vero cells
  SI: >4000
[4]
  MIC foldshift: >8
[3]
  MICWT: 0.064 µg/mL
[5]
  MIC bedaquiline-resistant strain: 0.054 µg/mL (≈ 0.121 µM)

## CCOC(=O)NC(=O)c1ccsc1NC(=O)c1ccc(C(=O)N2CCCCC2)s1 [Compound 24j, Ethyl (2-(5-(Piperidine-1-carbonyl)thiophene-2-carboxamido)thiophene-3-carbonyl)carbamate]
Vero cells
  SI: >457
[4]
  MIC foldshift: 32
[3]
  MICWT: 0.28 µg/mL

## COC(=O)NC(=O)c1ccsc1NC(=O)c1ccc(C(=O)N2CCCCC2)cc1 [Compound 25a, Methyl (2-(4-(Piperidine-1-carbonyl)benzamido)thiophene-3-carbonyl)carbamate]
[1]
  MIC PBTZ169-resistant strain: 0.48 µg/mL (≈ 1.16 µM)
[2]
  MIC drug-resistant tuberculosis strains: 0.031 to 0.24 µg/mL
[3]
  MICWT: 0.76 µg/mL

## COC(=O)NC(=O)c1ccsc1NC(=O)c1ccc(C(=O)N2CCCCC2)c(F)c1 [Compound 25b, Methyl (2-(3-Fluoro-4-(piperidine-1-carbonyl)benzamido)thiophene-3-carbonyl)carbamate]
[2]
  MIC drug-resistant tuberculosis strains: 0.031 to 0.24 µg/mL
[3]
  MICWT: 0.12 µg/mL

## O=C(Nc1sccc1C(=O)Nc1nccc(C(F)(F)F)n1)c1ccc(C(=O)N2CCCCC2)cc1 [Compound 25l, 2-(4-(Piperidine-1-carbonyl)benzamido)-N-(4-(trifluoromethyl)pyrimidin-2-yl)thiophene-3-carboxamide]
Vero cells
  SI: >320
[4]
  MIC foldshift: 8
[3]
  MICWT: 1.60 µg/mL

## CCOC(=O)NC(=O)c1ccsc1NC(=O)c1nc2ccccc2s1 [TCA1, reference compound]
[1]
  MIC PBTZ169-resistant strain: 1.23 µg/mL (≈ 3.28 µM)
[3]
  MICWT: 0.48 µg/mL
